A mixed list of measured activities; the numbers were collected in NIAID ChemDB.

Common to all: growth or infection tests; organism: HIV-1; measure: EC50

An empty or dashed field is not shown.

SMILES | strain | changes | cell line | read by | setting | result
NS(=O)(=O)c1ccc(Oc2ccc(NC(=O)N[C@@H]3[C@@H]4CCc5c(F)ccc(F)c5[C@@H]43)cc2)cc1 | IIIB | - | MT-4 cells | ELISA | - | 0.00097 µM
CC(=O)N[C@@H](CS)C(=O)O | - | - | U1 | p24 | - | <3000 µM
Cc1ccnc2c1NC(=O)c1cccnc1N2C1CC1 | HXB2 | RT-M41L L74V V106A T215Y | C8166 | p24 | - | 0.9 µM
O=P(O)(O)Cc1cc2c(O)c(c1)Sc1cc(CP(=O)(O)O)cc(c1O)Sc1cc(CP(=O)(O)O)cc(c1O)Sc1cc(CP(=O)(O)O)cc(c1O)S2 | - | integrase inhibitor resistance mutation | TZM-bl + MT-2 | luciferase | - | 2.3 µM
O=c1[nH]c(-c2ccc(O)c(O)c2O)nc2ccccc12 | - | - | OM-10.1 | p24 | - | >51 µM
Cc1cc(=O)c2ccc(N=C=S)cc2o1 | ADA | - | CEM-GFP | p24 / ELISA | - | 0.186 µM
Nc1ccn([C@H]2CC[C@@H](CO)O2)c(=O)n1 | LAV | - | CEM-CCRF | p24 | - | 0.05 µM
CC(=O)SCCOP(=O)(OCCSC(C)=O)OC[C@H]1O[C@@H](n2cc(C)c(=O)[nH]c2=O)C[C@@H]1N=[N+]=[N-] | RF | - | MOLT-4/8 | p24 | - | 0.023 µM
Cc1cn([C@H]2C[C@H](N=[N+]=[N-])[C@@H](CO)O2)c(=O)[nH]c1=O | LAV | - | CEM-CCRF | p24 | - | 0.11 µM
Nc1nc(=O)n([C@H]2CO[C@@H](CO)S2)cc1F | 3350(RT-M184V) | RT-M184V | CBMC | RT activity | - | 18 µM
C#C[C@]1(CO)O[C@@H](n2cnc3c(N)nc(F)nc32)C[C@@H]1OC(=O)C1CCCCC1 | NL4-3 | - | U373-CD4-CXCR4 | luminescence | pseudotyped | 0.0039 µM
O=c1[nH]cnc2c1ncn2[C@H]1CC[C@@H](CO)O1 | NL4-3 WT | - | MT-2 | p24 | - | 0.297 µM
Nc1ccn([C@@H]2CO[C@H](CO)S2)c(=O)n1 | HXB2 | - | C8166 | p24 | - | 2 µM
C=C(CC[C@@H](C)[C@H]1CC[C@@]2(C)[C@@H]3CC[C@H]4[C@](C)(C(=O)O)[C@@H](O)CC[C@@]45C[C@@]35CC[C@]12C)C(C)C | MC99 deltaTAT/REV | - | 1A2 | syncytia / β-galactosidase | - | 58.1 µg/mL
C#C[C@]1(CO)O[C@@H](n2cnc3c(NC(=O)CCCCCCCCC)nc(F)nc32)C[C@@H]1OC(=O)CCCCCCCCC | NL4-3 | - | U373-CD4-CXCR4 | luminescence | pseudotyped | 0.0068 µM
Nc1ccn([C@H]2CC[C@@H](CO)O2)c(=O)n1 | BRU | - | CEM-C113 + CEM/C113 | cytopathic effect / MTT | 7 d | <0.2 µM
Cc1cn([C@@H]2O[C@H](CO[Si](C)(C)C(C)(C)C)C3(OS(=O)(=O)C=C3N)[C@H]2O[Si](C)(C)C(C)(C)C)c(=O)n(C)c1=O | BaL | - | Monocytes/macrophages | p24 | - | 0.162 µM
COCCN1CN2C(=O)OCc3c(C(=O)NCc4ccc(F)cc4F)c(=O)c(O)c(n32)C1=O | NL4-3 | - | MT4-GFP | fluorescence | - | 0.0198 µM
Nc1nc(=O)n([C@@H]2CO[C@H](CO)S2)cc1F | 4242 (RT-M41L K70R T215Y) | RT-M41L K70R T215Y | CBMC | RT activity | - | 0.4 µM
Cc1cn([C@H]2CC[C@@H](CO)O2)c(=O)[nH]c1=O | IIIB | - | ATH8 | cytopathic effect / trypan blue | - | <100 µM
Cc1ccnc2c1NC(=O)c1cccnc1N2C1CC1 | NNRTI-resistant (RT K103N P225H) | RT-K103N P225H | MAGI | β-galactosidase | - | 9.6 µM
C#C[C@]1(CO)O[C@@H](n2cnc3c(N)nc(F)nc32)C[C@@H]1OC(=O)Cc1ccccc1 | NL4-3 | - | U373-CD4-CXCR4 | luminescence | pseudotyped | 0.0072 µM
CC(=O)N[C@@H](CS)C(=O)O | - | - | U-937/HIV-1 + U-937 | MTT / p24 | - | >200 µM
Cc1cn([C@H]2C[C@H](N=[N+]=[N-])[C@@H](CO)O2)c(=O)[nH]c1=O | - | RT-M184V | CD4+HELA + HeLa | p24 | - | 0.07 µM
CC(C)=CC(=O)C[C@@H](C)[C@H]1CC[C@@]2(C)[C@@H]3CC[C@H]4C(C)(C)[C@@H](O)C[C@H](O)[C@@]45C[C@@]35CC[C@]12C | MC99 deltaTAT/REV | - | 1A2 | syncytia / β-galactosidase | - | 14.2 µg/mL
O=c1[nH]c(-c2ccc3[nH]ncc3c2)nc2ccccc12 | - | - | OM-10.1 | p24 | - | ≥19.1 µM
Cc1cn([C@H]2CC[C@@H](CO)O2)c(=O)[nH]c1=O | BRU | - | CEM-C113 + CEM/C113 | cytopathic effect / MTT | 22 d | >25 µM
Nc1ccn([C@H]2CC[C@@H](CO)O2)c(=O)n1 | - | RT-K103N | MT-2 | p24 | - | 0.049 µM
Clc1ccccc1-c1nc2ccccn2c1NC1CCCCC1 | - | - | 293T | luciferase | pseudotyped | 0.046 µM
Cc1cn([C@H]2C[C@H](N=[N+]=[N-])[C@@H](COP(=O)(OCCSC(=O)C(C)C)OCCSC(=O)C(C)C)O2)c(=O)[nH]c1=O | RF | - | MOLT-4/8 | p24 | - | 0.018 µM
C#C[C@]1(COC(=O)OCCCCCC)O[C@@H](n2cnc3c(N)nc(F)nc32)C[C@@H]1OC(=O)CCCCCCCCCCCCC | NL4-3 | - | U373-CD4-CXCR4 | luminescence | pseudotyped | 1.093 µM
Nc1ccn([C@@H]2CS[C@H](CO)O2)c(=O)n1 | - | A62V V75I F77L F116Y Q151M | Primary T lymphocytes | p24 / ELISA | - | 0.5 µM
C#C[C@]1(CO)O[C@@H](n2cnc3c(NC(=O)CCCCCCCCCCCCC)nc(F)nc32)C[C@@H]1OC(=O)CC(C)(C)c1c(C)cc(C)cc1OC(C)=O | NL4-3 | - | U373-CD4-CXCR4 | luminescence | pseudotyped | 0.0415 µM
Cc1cn([C@H]2C[C@H](N=[N+]=[N-])[C@@H](CO)O2)c(=O)[nH]c1=O | - | M184V | Primary T lymphocytes | p24 / ELISA | - | 0.01 µM
CC(C)[C@H](NC(=O)c1ccc2ccccc2n1)C(=O)N[C@@H](Cc1ccccc1)[C@H](O)CN1CC[C@@H](OCc2ccncc2)C[C@H]1C(=O)NC(C)(C)C | IIIB/LAV | - | U1/HIV-1 + U1 | p24 | - | 0.09 µM
Cc1cn([C@H]2C[C@H](N=[N+]=[N-])[C@@H](CO)O2)c(=O)[nH]c1=O | LAI | - | PBMC (PHA stimulated) + PBMC | RT activity | - | 0.003 µM
C#C[C@]1(CO)O[C@@H](n2cnc3c(N)nc(F)nc32)C[C@@H]1OC(=O)CCCCCCCCCCCCC | NL4-3 | - | U373-CD4-CXCR4 | luminescence | pseudotyped | 0.0015 µM
Nc1ccn(CC#CCO)c(=O)n1 | IIIB | - | ATH8 | cytopathic effect / trypan blue | - | >100 µM
COC1CN2CN(C)C(=O)c3c(O)c(=O)c(C(=O)NCc4ccc(F)cc4F)c1n32 | NL4-3 | - | MT4-GFP | fluorescence | - | 0.004 µM
Cc1cn([C@H]2C[C@H](N=[N+]=[N-])[C@@H](COP(=O)(OCCCCSC(=O)C(C)(C)C)OCCCCSC(=O)C(C)(C)C)O2)c(=O)[nH]c1=O | LAI | - | CEM + CEM TK- | RT activity | - | >10 µM
C[C@@H]1O[C@@H](OC[C@H]2O[C@@H](Oc3c(-c4ccc(OS(=O)(=O)O)c(OS(=O)(=O)O)c4)oc4cc(OS(=O)(=O)O)cc(OS(=O)(=O)O)c4c3=O)[C@H](OS(=O)(=O)O)[C@@H](OS(=O)(=O)O)[C@@H]2OS(=O)(=O)O)[C@H](OS(=O)(=O)O)[C@H](OS(=O)(=O)O)[C@H]1OS(=O)(=O)O | BAL R5 | - | TZM-b1 | luciferase | - | 8.5 µM
Cc1cn([C@H]2C=C[C@@H](CO)O2)c(=O)[nH]c1=O | LAI | - | Primary T lymphocytes | p24 / ELISA | - | 1 µM
CCOC(=O)c1[nH]c2ccc(Cl)cc2c1Cc1ccccc1 | - | - | 293T | luciferase | - | 0.24 µM
CN(CCO)c1ccc(-c2nc3ccccc3c(=O)[nH]2)cc1 | - | - | OM-10.1 | p24 | - | 14 µM
CCCCC#CCSc1ccccc1OC(C)=O | - | - | MDM | - | - | 10 µM
Cc1cn([C@H]2C[C@H](N=[N+]=[N-])[C@@H](CO)O2)c(=O)[nH]c1=O | P022A (RT-WT) | - | HT4 + HT4-6C | plaque count | - | 0.01 µM
CC(C)(O)c1cccc(CN2C(=O)N(Cc3cccc(C(C)(C)O)c3)[C@H](Cc3ccccc3)[C@H](O)[C@@H](O)[C@H]2Cc2ccccc2)c1 | HXB2 | PR-V82F | MT-2/MT-4 + MT-2 | p24 | - | <0.0843 µM
Nc1ncnc2c1ncn2[C@H]1CC[C@@H](CO)O1 | LAI | - | CEM + CEM TK- | RT activity | - | 1 µM
O=c1[nH]cnc2c1ncn2[C@H]1CC[C@@H](CO)O1 | IIIB | - | ATH8 | cytopathic effect / trypan blue | - | <10 µM
c1cc(CN2CCCNCCNCCCNCC2)ccc1CN1CCCNCCNCCCNCC1 | NLAD8 | - | PM1 | MTT | - | >50 µM
C#C[C@]1(COC(=O)OCC)O[C@@H](n2cnc3c(N)nc(F)nc32)C[C@@H]1OC(=O)CCCCCCCCC | NL4-3 | - | U373-CD4-CXCR4 | luminescence | pseudotyped | 0.0114 µM
CC(C)(C)C(=O)SCCCCOP(=O)(OCCCCSC(=O)C(C)(C)C)OC[C@@H]1CC[C@H](n2cnc3c(N)ncnc32)O1 | LAI | - | CEM + CEM TK- | RT activity | - | >10 µM
CCCCCCCCCCCCCCCCOP(=O)(OCCO[C@@H]1O[C@H](CO)[C@@H](O)[C@H](O)[C@@H]1O)OC[C@H]1O[C@@H](n2cc(C)c(=O)[nH]c2=O)C[C@@H]1N=[N+]=[N-] | BRU | - | CEM-C113 + CEM/C113 | cytopathic effect / MTT | 22 d | >1 µM
CC(C)N1CN2C(=O)N(C)Cc3c(-c4cnn(Cc5ccc(F)cc5F)c4)c(=O)c(O)c(n32)C1=O | NL4-3 | - | MT4-GFP | fluorescence | - | 0.0746 µM

Repeating the final 7 entries:

SMILES	strain	changes	cell line	read by	setting	result
Nc1ncnc2c1ncn2[C@H]1CC[C@@H](CO)O1	LAI	-	CEM + CEM TK-	RT activity	-	1 µM
O=c1[nH]cnc2c1ncn2[C@H]1CC[C@@H](CO)O1	IIIB	-	ATH8	cytopathic effect / trypan blue	-	<10 µM
c1cc(CN2CCCNCCNCCCNCC2)ccc1CN1CCCNCCNCCCNCC1	NLAD8	-	PM1	MTT	-	>50 µM
C#C[C@]1(COC(=O)OCC)O[C@@H](n2cnc3c(N)nc(F)nc32)C[C@@H]1OC(=O)CCCCCCCCC	NL4-3	-	U373-CD4-CXCR4	luminescence	pseudotyped	0.0114 µM
CC(C)(C)C(=O)SCCCCOP(=O)(OCCCCSC(=O)C(C)(C)C)OC[C@@H]1CC[C@H](n2cnc3c(N)ncnc32)O1	LAI	-	CEM + CEM TK-	RT activity	-	>10 µM
CCCCCCCCCCCCCCCCOP(=O)(OCCO[C@@H]1O[C@H](CO)[C@@H](O)[C@H](O)[C@@H]1O)OC[C@H]1O[C@@H](n2cc(C)c(=O)[nH]c2=O)C[C@@H]1N=[N+]=[N-]	BRU	-	CEM-C113 + CEM/C113	cytopathic effect / MTT	22 d	>1 µM
CC(C)N1CN2C(=O)N(C)Cc3c(-c4cnn(Cc5ccc(F)cc5F)c4)c(=O)c(O)c(n32)C1=O	NL4-3	-	MT4-GFP	fluorescence	-	0.0746 µM

Conditions beyond the fields shown may differ between rows. ECn: concentration that inhibits the pathogen or its effect by n%.